Pooled drug test results. Numbers come from NIAID ChemDB, via PubChem.

Common to all: tests on isolated targets

ICn is the concentration giving n% inhibition. Rows are shuffled and stem from different studies. Blank or dashed fields: not listed here. Two numbers with a dash give a range or band. Percent inhibition refers to the dose given; in toxicity tests it is the harm to the cells.

SMILES,protein,method,species,endpoint,strain,dose,result
O=C(Nc1ccsc1-c1nc(C(=O)O)c(O)c(=O)[nH]1)OCC1c2ccccc2-c2ccccc21,HCV polymerase,,Hepatitis C virus,IC50,,,<25 µM
C=CC(=O)NCC(=O)N1C[C@H](Oc2nccc3ccc(Br)cc23)C[C@H]1C(=O)N[C@]1(C(=O)NS(=O)(=O)C2CC2)C[C@H]1C=C,Nonstructural protein 3/4A,FRET,Hepatitis C virus,IC50,1b WT,,0.004 µM
O=C(Nc1ccc2cn[nH]c2c1)c1cc(NCc2ccccn2)c(F)cc1F,Reverse transcriptase,,Hepatitis B virus,inhibition,,0.01 µg/mL,30%
CC[C@H](C)[C@H](NC(=O)[C@@H](NC(=O)[C@H](CCC(=O)O)NC(=O)[C@H](CC(=O)O)NC(C)=O)C(c1ccccc1)c1ccccc1)C(=O)N[C@@H](CC1CCCCC1)C(=O)N[C@@H](CS)C(=O)O,HCV NS3 protease,,Hepatitis C virus,IC50,,,0.06 µM
N#Cc1cccc(/C=C2/SC(=S)N(NS(=O)(=O)c3ccccc3)C2=O)c1,NS5B polymerase,,Hepatitis C virus,IC50,,,≤30 µM
CC(C)(C)OC(=O)NCc1cccc(COC(=O)Nc2ccsc2-c2nc(C(=O)O)c(O)c(=O)[nH]2)c1,HCV polymerase,,Hepatitis C virus,IC50,,,<25 µM
CCOC(=O)c1ccccc1-c1ccc(CN(C(=O)c2ccc(Cl)cc2Cl)[C@@H](Cc2ccccc2)C(=O)O)o1,RNA-dependent RNA polymerase,,Hepatitis C virus,IC50,,,<5 µM
N#Cc1ccccc1S(=O)(=O)Nc1cc(-c2ccccc2)sc1C(=O)O,NS3 ATPase,,Hepatitis C virus,IC50,,,<5 µM
CC[C@H](C)[C@H](NC(=O)[C@@H](NC(C)=O)C(c1ccccc1)c1ccccc1)C(=O)N[C@@H](CC1CCCCC1)C(=O)N[C@@H](CS)C(=O)O,HCV NS3 protease,,Hepatitis C virus,IC50,,,100 µM
Cc1ccc(C)c(S(=O)(=O)Nc2cc(-c3ccccc3)sc2C(=O)O)c1,NS3 ATPase,,Hepatitis C virus,IC50,,,5–20 µM
CSCC[C@H](NC(=O)[C@H](CCC(=O)O)NC(=O)[C@H](CC(=O)O)NC(C)=O)C(=O)N[C@@H](CCC(=O)O)C(=O)N[C@@H](Cc1ccc2ccccc2c1)C(=O)N[C@@H](CS)C(=O)O,Full-length NS3,,Hepatitis C virus,Ki,,,0.44 µM
CC1CCC(C(=O)N(c2ccncc2)c2cc(-c3ccccc3)sc2C(=O)O)CC1,NS3 ATPase,,Hepatitis C virus,IC50,,,<5 µM
CC(=O)N[C@H](C(=O)N[C@@H](CCC(=O)O)C(=O)N[C@@H](CC1CCCCC1)C(=O)N[C@@H](CS)C(=O)O)C(c1ccccc1)c1ccccc1,HCV NS3 protease,,Hepatitis C virus,IC50,,,30 µM
O=C(Nc1ccc2[nH]ncc2c1)c1cc(N2CCC(O)CC2)c(F)cc1F,Nonstructural protein 5B,,Hepatitis C virus,inhibition,,10 µg/mL,81%
C[C@@]1(O)[C@H](O)[C@@H](COP(=O)(O)OP(=O)(O)OP(=O)(O)O)O[C@@]1(C#N)c1ccc2c(N)ncnn12,Nonstructural protein 5B,radiometric,Hepatitis C virus,IC50,1b Con1,,0.39 µM
CC(C)N(C(=O)c1ccc(Cl)cc1Cl)c1cc(C2=CCN(C(=O)OCc3ccccc3)CC2)sc1C(=O)O,NS3 ATPase,,Hepatitis C virus,IC50,,,<5 µM
C=C[C@H]1CC1(NC(=O)[C@@H]1C[C@@H](Oc2cc(N3CCN(C)CC3)nc3ccccc23)CN1C(=O)[C@@H](NC(=O)OC(C)(C)C)C(C)(C)C)C(=O)O,HCV NS3/NS4A protease,,Hepatitis C virus,IC50,,,0.72 µM
O=C(O)c1nc(-c2sccc2NC(=O)C(O)c2ccccc2Cl)[nH]c(=O)c1O,HCV polymerase,,Hepatitis C virus,IC50,,,<25 µM
O=C1/C(=C\c2ccc(Cl)c([N+](=O)[O-])c2)SC(=S)N1NS(=O)(=O)c1ccccc1,NS5B polymerase,,Hepatitis C virus,IC50,,,≤30 µM
O=C(O)[C@H](Cc1ccccc1)N(Cc1ccc(-c2nccs2)cc1)C(=O)c1ccc(Cl)cc1Cl,RNA-dependent RNA polymerase,,Hepatitis C virus,IC50,,,<5 µM
O=C(O)c1sc(-c2ccccc2)cc1N(C(=O)c1ccc(Cl)cc1Cl)C1CCNCC1,NS3 ATPase,,Hepatitis C virus,IC50,,,5–20 µM
O=C(O)c1nc(-c2cccc(OCc3ccc(F)cc3Cl)c2)[nH]c(=O)c1O,HCV polymerase,,Hepatitis C virus,IC50,,,<100 µM
CN1CCNCCC1c1cc(C(=O)Nc2ccc3[nH]ncc3c2)c(F)cc1F,Reverse transcriptase,,Hepatitis B virus,inhibition,,0.1 µg/mL,49%
C=C[C@H]1CC1(NC(=O)[C@@H]1C[C@@H](Oc2cc(C)nc3ccccc23)CN1C(=O)[C@@H](NC(=O)OC(C)(C)C)C1CCCCC1)C(=O)O,HCV NS3/NS4A protease,,Hepatitis C virus,IC50,,,2.5 µM
CC(=O)N[C@@H](CC(=O)O)C(=O)N[C@@H](CCC(=O)O)C(=O)N[C@H](C(=O)N[C@@H](CCC(=O)O)C(=O)N[C@@H](CC1CCCCC1)C(=O)N[C@@H](CS)C(=O)O)C(c1ccccc1)c1ccccc1,HCV NS3 protease,,Hepatitis C virus,IC50,,,0.05 µM
O=C(Nc1ccc2cn[nH]c2c1)c1cc(N2CCNCC2)c(F)cc1F,Nonstructural protein 5B,,Hepatitis C virus,inhibition,,0.1 µg/mL,20%
O=C1/C(=C\c2ccc3c(c2)OCO3)SC(=S)N1NS(=O)(=O)c1ccccc1,NS5B polymerase,,Hepatitis C virus,IC50,,,≤30 µM
O=C(Nc1ccc(C(F)(F)F)cc1)Nc1cccc(-c2nc(C(=O)O)c(O)c(=O)[nH]2)c1,HCV polymerase,,Hepatitis C virus,IC50,,,<100 µM
O=C1/C(=C\c2ccc(Cl)c(Cl)c2)SC(=S)N1NS(=O)(=O)c1cccc2ccccc12,NS5B polymerase,,Hepatitis C virus,IC50,,,≤30 µM
CC1=NCCN1c1cc(C(=O)Nc2ccc3[nH]ncc3c2)c(F)cc1F,Nonstructural protein 5B,,Hepatitis C virus,inhibition,,1 µg/mL,10%
Cc1ccc(S(=O)(=O)Nc2cc(-c3ccccc3)sc2C(N)=O)cc1,NS3 ATPase,,Hepatitis C virus,IC50,,,5–20 µM
O=C(Nc1cccc(-c2nc(C(=O)O)c(O)c(=O)[nH]2)c1)Nc1ccccc1[N+](=O)[O-],HCV polymerase,,Hepatitis C virus,IC50,,,<100 µM
C=C[C@H]1CC1(NC(=O)[C@@H]1C[C@@H](Oc2cc(-c3ccccc3)nc3ccccc23)CN1C(=O)[C@@H](NC(=O)OC(C)(C)C)C1CCCCC1)C(=O)O,HCV NS3/NS4A protease,,Hepatitis C virus,IC50,,,14 µM
O=C1/C(=C\c2ccc(Cl)c(Cl)c2)SC(=S)N1NS(=O)(=O)c1ccccc1F,NS5B polymerase,,Hepatitis C virus,IC50,,,≤30 µM
O=C(O)c1nc(-c2cccc(Cn3c(=O)oc4ccccc43)c2)[nH]c(=O)c1O,HCV polymerase,,Hepatitis C virus,IC50,,,<100 µM
O=C(Nc1ccc2[nH]ncc2c1)c1cc(N2CCNCC2)c(F)cc1F,Reverse transcriptase,,Hepatitis B virus,IC50,,,0.1–1 µg/mL
C=C[C@H]1CC1(NC(=O)[C@@H]1C[C@@H](Oc2cc(-c3cccc(OC)c3)nc3cc(OC)ccc23)CN1C(=O)[C@@H](NC(=O)OC(C)(C)C)C(C)(C)C)C(=O)O,HCV NS3/NS4A protease,,Hepatitis C virus,IC50,,,0.07 µM
Cc1ccccc1S(=O)(=O)Nc1cc(-c2cccc([N+](=O)[O-])c2)sc1C(=O)O,NS3 ATPase,,Hepatitis C virus,IC50,,,<5 µM
NCc1ccccc1COC(=O)Nc1ccsc1-c1nc(C(=O)O)c(O)c(=O)[nH]1,HCV polymerase,,Hepatitis C virus,IC50,,,<25 µM
Cc1ccc(C(=O)N(c2cc(-c3cccc(C(F)(F)F)c3)sc2C(=O)O)C(C)C)c(OCc2ccccc2)c1,NS3 ATPase,,Hepatitis C virus,IC50,,,<5 µM
CC(=O)N[C@H](C(=O)N1C[C@H](Oc2cc(-c3ccccc3)nc3ccc([N+](=O)[O-])cc23)C[C@H]1C(=O)NC1(C(=O)O)CC1)C1CCCCC1,HCV NS3/NS4A protease,,Hepatitis C virus,IC50,,,6.3 µM
COc1cc(C)c(S(=O)(=O)N(Cc2cccc(Br)c2)[C@@H](Cc2ccccc2)C(=O)O)c(C)c1C,RNA-dependent RNA polymerase,,Hepatitis C virus,IC50,,,5–20 µM
CN1CCN(c2cc(C(=O)Nc3ccc4[nH]ncc4c3)c(F)cc2F)CC1,Nonstructural protein 5B,,Hepatitis C virus,inhibition,,0.1 µg/mL,0%
O=C(O)[C@H](Cc1ccccc1)N(Cc1cccc(Br)c1)C(=O)c1ccc(Cl)cc1I,RNA-dependent RNA polymerase,,Hepatitis C virus,IC50,,,<5 µM
C=C[C@H]1CC1(NC(=O)[C@@H]1C[C@@H](Oc2cc(-c3ccccc3)nc3ccc(N)cc23)CN1C(=O)[C@@H](NC(=O)OC(C)(C)C)C1CCCCC1)C(=O)O,HCV NS3/NS4A protease,,Hepatitis C virus,IC50,,,0.66 µM
O=C(Nc1cccc(-c2nc(C(=O)O)c(O)c(=O)[nH]2)c1)Nc1ccccc1-c1ccccc1,HCV polymerase,,Hepatitis C virus,IC50,,,<100 µM
Cc1ccc(C(=O)N(C)c2cc(-c3ccccc3)sc2C(=O)O)c(C)c1,NS3 ATPase,,Hepatitis C virus,IC50,,,<5 µM